PubChem BioAssay AID1224833, University of Georgia – 2016
Test: 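Human genes whose knock-down alters rotavirus replication in monkey cells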 (primary screen). Cell system: monkey MA104 kidney cells. Reagent: siRNA pool against human genes, 50 nM. Time to read-out: 48 h knock-down before infection; read 24 h after infection. Challenge: infection with rotavirus strain RV3 two days after transfection; infectious dose for this stage not given. Detection: 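Rotavirus antigen per well by fluorescent immunoassay, normalised to non-targeting control wells on each plate and given as a standard z-score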. Reading the numbers: z-score vs non-targeting control: higher = more rotavirus replication than with non-targeting control. Hit rule: In these data the active calls have z-score vs non-targeting control at about -1 or lower, or at about 1 or higher. Meaning of the calls: active = z-score beyond 1 either way; inactive = z-score within 1 of zero.
The whole screen tested about 12,000 reagents; below is a part drawn at random. In the full data, about 5,600 (46%) are marked active. 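Active calls cover z-scores past 1 in both directions, so they include lowered as well as raised rotavirus replication.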

| gene | PubChem SID | z-score vs non-targeting control | outcome |
| --- | --- | --- | --- |
| MT3 (GeneID 4504) | SID329574500 | 0.376 | inactive |
| TPP2 (GeneID 7174) | SID329575707 | -0.704 | inactive |
| UQCR11 (GeneID 10975) | SID329577461 | -1.2 | active |
| NR2E3 (GeneID 10002) | SID329576912 | -1.24 | active |
| STMN3 (GeneID 50861) | SID329578835 | -0.452 | inactive |
| ADIPOR2 (GeneID 79602) | SID329580911 | 0.92 | inactive |
| ANAPC13 (GeneID 25847) | SID329578191 | 0.507 | inactive |
| ZNF496 (GeneID 84838) | SID329581737 | 0.565 | inactive |
| ZPBP2 (GeneID 124626) | SID329582494 | -1.05 | active |
| OR2AG2 (GeneID 338755) | SID329584033 | 1.17 | active |
| ROBO3 (GeneID 64221) | SID329580599 | 0.783 | inactive |
| OR2A1 (GeneID 346528) | SID329584149 | 0.376 | inactive |
| ZNF614 (GeneID 80110) | SID329581140 | 0.928 | inactive |
| ASPNAT (GeneID 339983) | SID329584064 | 1.36 | active |
| SRRM2 (GeneID 23524) | SID329578038 | -1.67 | active |
| HLA-DPB1 (GeneID 3115) | SID329573968 | 0.832 | inactive |
| NAP1L2 (GeneID 4674) | SID329574548 | 0.633 | inactive |
| PNMT (GeneID 5409) | SID329574888 | -1.16 | active |
| SNTG1 (GeneID 54212) | SID329579259 | 1.35 | active |
| TCF7 (GeneID 6932) | SID329575583 | -2.1 | active |
| PHACTR1 (GeneID 221692) | SID329583602 | 0.22 | inactive |
| ZNF248 (GeneID 57209) | SID329580204 | -0.625 | inactive |
| PLA1A (GeneID 51365) | SID329579038 | -1.51 | active |
| ATP6V1C1 (GeneID 528) | SID329572874 | -1.82 | active |
| RDH5 (GeneID 5959) | SID329575103 | 0.845 | inactive |
| PPAN (GeneID 56342) | SID329580032 | 1.65 | active |
| MALT1 (GeneID 10892) | SID329577408 | -0.76 | inactive |
| NLGN4X (GeneID 57502) | SID329580258 | 0.724 | inactive |
| SPG21 (GeneID 51324) | SID329579022 | 0.883 | inactive |
| GPR55 (GeneID 9290) | SID329576519 | -1.71 | active |
| MON1A (GeneID 84315) | SID329581597 | 0.86 | inactive |
| TMEM143 (GeneID 55260) | SID329579667 | 1.2 | active |
| EHD1 (GeneID 10938) | SID329577436 | -1.62 | active |
| ZGRF1 (GeneID 55345) | SID329579705 | 1.11 | active |
| SLC12A9 (GeneID 56996) | SID329580129 | -0.678 | inactive |
| PLAAT3 (GeneID 11145) | SID329577560 | -0.673 | inactive |
| UBXN8 (GeneID 7993) | SID329575982 | -1.32 | active |
| PPY (GeneID 5539) | SID329574930 | -0.971 | inactive |
| ZNF331 (GeneID 55422) | SID329579718 | 0.573 | inactive |
| EFCAB11 (GeneID 90141) | SID329581927 | 1.45 | active |
| MYBPHL (GeneID 343263) | SID329584120 | 1.04 | active |
| NUP98 (GeneID 4928) | SID329574684 | 0.732 | inactive |
| SSX4B (GeneID 548313) | SID329584660 | -1.19 | active |
| DNAAF3 (GeneID 352909) | SID329584184 | -1.48 | active |
| TMEM108 (GeneID 66000) | SID329580780 | -0.554 | inactive |
| SCML4 (GeneID 256380) | SID329583743 | -0.325 | inactive |
| GATM (GeneID 2628) | SID329573727 | -1.17 | active |

Targets above whose gene name starts with T or t (4):
| gene | PubChem SID | z-score vs non-targeting control | outcome |
| --- | --- | --- | --- |
| TPP2 (GeneID 7174) | SID329575707 | -0.704 | inactive |
| TCF7 (GeneID 6932) | SID329575583 | -2.1 | active |
| TMEM143 (GeneID 55260) | SID329579667 | 1.2 | active |
| TMEM108 (GeneID 66000) | SID329580780 | -0.554 | inactive |

The listing continues:
| gene | PubChem SID | z-score vs non-targeting control | outcome |
| --- | --- | --- | --- |
| PSMA6 (GeneID 5687) | SID329574978 | 1.26 | active |
| GARIN4 (GeneID 149647) | SID329583001 | -1.78 | active |
| HDAC5 (GeneID 10014) | SID329576919 | 1.07 | active |
| HYAL4 (GeneID 23553) | SID329578056 | -0.617 | inactive |
| COMMD5 (GeneID 28991) | SID329578631 | 1.13 | active |
| LRTOMT (GeneID 220074) | SID329583551 | 0.209 | inactive |
| KBTBD12 (GeneID 166348) | SID329583274 | 2.25 | active |
| MED1 (GeneID 5469) | SID329574918 | -0.684 | inactive |
| DTNB (GeneID 1838) | SID329573462 | 0.646 | inactive |
| FKRP (GeneID 79147) | SID329580847 | 0.546 | inactive |
| RCBTB1 (GeneID 55213) | SID329579643 | -0.9 | inactive |
| MUC4 (GeneID 4585) | SID329574509 | -0.765 | inactive |
| KIAA1328 (GeneID 57536) | SID329580278 | -0.0329 | inactive |
| ADIG (GeneID 149685) | SID329583002 | 2.17 | active |
| GPR153 (GeneID 387509) | SID329584295 | -0.948 | inactive |
| TMCC1 (GeneID 23023) | SID329577767 | 0.923 | inactive |
| CAPRIN2 (GeneID 65981) | SID329580768 | 0.847 | inactive |
| ATPAF1 (GeneID 64756) | SID329580665 | -2.34 | active |
| BROX (GeneID 148362) | SID329582977 | -1.31 | active |
| CACNA2D4 (GeneID 93589) | SID329582117 | -0.863 | inactive |
| MC3R (GeneID 4159) | SID329574403 | -1.15 | active |
| RMI2 (GeneID 116028) | SID329582285 | 0.571 | inactive |
| KIF4A (GeneID 24137) | SID329578140 | -1.08 | active |
| DNASE1L1 (GeneID 1774) | SID329573422 | -1.21 | active |
| CALCOCO1 (GeneID 57658) | SID329580336 | 1.06 | active |
| RANGAP1 (GeneID 5905) | SID329575069 | -0.696 | inactive |
| GRHPR (GeneID 9380) | SID329576567 | 1.46 | active |
| P4HA1 (GeneID 5033) | SID329574734 | 1.74 | active |
